Holding throughout (assay): SEC-MALS
The target in series [1] is purified Q61Y N1 (C-terminal His tag), vaccinia virus (UniProt P17361).
Series [2] has as its target purified R71Y N1 (C-terminal His tag), vaccinia virus (UniProt P17361).
For series [3], the target named is purified R58Y N1 (C-terminal His tag), vaccinia virus (UniProt P17361).

Regarding “purified Q61Y N1 (C-terminal His tag) Q61Y | C40S”, the stoichiometry N (in general, a count of units in the complex or per binding partner) in series [1] worked out at 2. Regarding “purified R71Y N1 (C-terminal His tag) R71Y | C40S”, the stoichiometry N in series [2] was determined as 2. Regarding “purified R58Y N1 (C-terminal His tag) R58Y | C40S”, in series [3], the stoichiometry N was found to be 2.

The values are drawn from paper PMC3240604, “Inhibition of Apoptosis and NF-κB Activation by Vaccinia Protein N1 Occur via Distinct Binding Surfaces and Make Different Contributions to Virulence” (2011).
